These are literature values, as cited in paper PMC9922164.

This series has as its target TLR4 (Homo sapiens) (UniProt O00206).

As to “Spike protein trimer trimer (from UniProt P0DTC2)”, the Kd is 300 nM.
